Results of unrelated studies side by side (data: NIAID ChemDB).

Shared fields: whole-cell or culture tests; organism: Mycobacterium tuberculosis

An empty or dashed field is not shown. Lines come from different laboratories, so protocols vary. MIC bound comes from a single tested concentration. Percent inhibition refers to the dose given; in toxicity tests it is the harm to the cells. MIC50, MIC90 and the like: level of inhibition, or share of isolates inhibited.

structure	method	read-out	mutations	dose	setting	strain or isolate	value
COc1cc2cc3c4cc(OC)c(OC)cc4cc[n+]3c(C)c2cc1OC	BACTEC	inhibition	-	12.8 µg/mL	-	H37Rv	65%
FC(F)(F)c1cc(NCc2ccccn2)c2cccc(C(F)(F)F)c2n1	-	MIC	-	-	-	-	66 µM
CC1=NN(C(=O)c2ccc(Cl)cc2)C(=O)C1N=Nc1ccc(S(=O)(=O)Nc2ncccn2)cc1	BACTEC	MIC bound	-	-	-	H37Rv	>12.8 µg/mL
O[C@@H](c1cc(C(F)(F)F)nc2c(C(F)(F)F)cccc12)[C@@H]1CCCCN1Cc1ccccc1	-	MIC	-	-	-	-	7 µM
CC(C)CC(NC(=O)C(CS)NC(=O)CN1C(=O)CCC1=O)C(N)=O	BACTEC	MIC bound	-	-	-	H37Rv	>12.5 µg/mL
O=C(CSc1nnc(-c2ccccn2)s1)N/N=c1/scc(-c2cccc(Cl)c2)n1-c1ccccc1	-	MIC	-	-	-	Clinical isolate 180	80 µg/mL
N#Cc1c(-c2cccc3ccccc23)c2c([nH]c1=S)CCCC2	BACTEC	inhibition	-	12.5 µg/mL	-	H37Rv	10%
CCCCCCCCC=CCCCCCCCCNCc1ccc(Cl)cc1	-	MIC	-	-	-	Clinical isolates MDR	25 µg/mL
Cc1cccc(CSc2ncnc3nc[nH]c23)c1	-	MIC90	-	-	-	H37Rv	>6.25 µg/mL
O=C(CSc1nnc(-c2ccccn2)s1)N/N=c1/scc(-c2ccccc2Cl)n1-c1ccccc1	-	MIC	-	-	-	Clinical isolate 180	20 µg/mL
CO[C@H]1/C=C/O[C@@]2(C)Oc3c(C)c(O)c4c(O)c(c(/C=N/N5CCN(C6CCCC6)CC5)c(O)c4c3C2=O)NC(=O)/C(C)=C\C=C\[C@H](C)[C@H](O)[C@@H](C)[C@@H](O)[C@@H](C)[C@H](O)[C@@H]1C	-	MIC	-	-	-	Isolate 900233 drug-susceptible	0.25 µg/mL
NNC(=O)c1ccncc1	-	MIC	-	-	-	Strain 448	8 µg/mL
CC[C@@H](CO)NCCN[C@@H](CC)CO	-	MIC	-	-	-	Isolate 13	1 µg/mL
C[C@H]1COc2c(N3CCN(C)CC3)c(F)cc3c(=O)c(C(=O)O)cn1c23	-	MIC	-	-	-	Strain 7	0.25 µg/mL
Cc1ccc(Sc2ccncc2)cc1	-	MIC	-	-	-	H37Ra	>12.8 µg/mL
CO[C@H]1/C=C/O[C@@]2(C)Oc3c(C)c(O)c4c(O)c(c5c(c4c3C2=O)NC2(CCN(CC(C)C)CC2)N=5)=NC(=O)/C(C)=C\C=C\[C@H](C)[C@H](O)[C@@H](C)[C@@H](O)[C@@H](C)[C@H](OC(C)=O)[C@@H]1C	-	MIC	-	-	-	H37RV-PLN-SIG	≤0.015 µg/mL
CCCCCCCCNCc1ccncc1	-	MIC	-	-	-	Sensitive strains	25 µg/mL
NC(=O)NC(=O)C1C2C=CC(C2)C1C(=O)NC(N)=O	BACTEC	MIC bound	-	-	-	H37Rv	>12.5 µg/mL
O=C(CSc1nnc(-c2ccccn2)s1)N/N=c1/scc(-c2ccccc2)n1-c1cccc(Br)c1	-	MIC	-	-	-	Clinical isolate 190	>80 µg/mL
CCCCNC(=O)c1nc(-c2ccccc2)c(-c2ccccc2)nc1N	BACTEC	MIC	-	-	-	H37Rv	≥12.5 µg/mL
COc1ccc(OC)c(Sc2ccncc2)c1	-	inhibition	-	6.25 µg/mL	-	H37Rv	15%
O=C(Nc1ccc(C(F)(F)F)cc1)c1cc(Cl)ccc1OP(=O)(OCc1ccccc1)OCc1ccccc1	-	MIC	-	-	14 d	My 331/88	4 µM
Cc1cc(N=C2C=C(Br)C(=O)C(Br)=C2)cc(CN(CC(=O)[O-])CC(=O)[O-])c1O.[Na+].[Na+]	BACTEC	inhibition	-	12.5 µg/mL	-	H37Rv	16%
CCCCCCCCCCCCCCCCNCc1ccc(Cl)cc1	-	MIC	-	-	-	H37Ra	<25 µg/mL
N/C(COc1ccc(Cl)cc1)=N/NC(=O)c1ccncc1	-	MIC	-	-	-	ATCC 35838 (rifampin-resistant)	3.12 µg/mL
O=C(c1cn(CCBr)nn1)c1cccs1	-	inhibition	-	12.5 µg/mL	-	H37Rv	94%
O=[N+]([O-])c1ccc(-n2nc3ccc4c(no[n+]4[O-])c3n2)cc1	resazurin	MIC bound	-	-	-	H37Rv	>6.25 µg/mL
Clc1cccc(Sc2nc(Cl)nc3nc[nH]c23)c1	-	MIC90	-	-	-	H37Rv	>6.25 µg/mL
O=C(Nc1ccc(Cl)cc1)c1cc(Cl)ccc1OP(=O)(OCc1ccccc1)OCc1ccccc1	-	MIC	-	-	7 d	My 331/88	16 µM
Cc1ccc(/C=N/C(=O)NCCCN2c3ccccc3Sc3ccccc32)cc1	agar	inhibition	-	25 µg/mL	-	H37Rv	20%
O=C(CSc1nnc(-c2ccccn2)s1)N/N=c1/scc(-c2ccc(Cl)cc2)n1-c1ccccc1	-	MIC	-	-	-	H37Rv	40 µg/mL
CCOC(=O)CC(c1cccc(Cl)c1)N1CCCC1	-	MIC	-	-	-	H37Ra	>25 µg/mL
Cc1ccccc1OC/C(N)=N\NC(=O)c1ccncc1	-	MIC	-	-	-	ATCC 35828 (pyrazinamide-resistant)	25 µg/mL
O=C(Oc1ccc(Cl)cc1)c1cn(-c2ccccc2)nn1	-	MIC	-	-	-	H37Rv	>12.5 µg/mL
CC1COc2c(N3CCN(C)CC3)c(F)cc3c(=O)c(C(=O)O)cn1c23	broth dilution	MIC80	Streptomycin-resistant	-	-	35820	0.7 µM
CCOc1ccc(Nc2nc3c(s2)C(=O)c2ccccc2C3=O)cc1	BACTEC	MIC bound	-	-	-	H37Rv	≤12.5 µg/mL
O=C(c1cn(-c2ccccc2)nn1)c1cccc2ccccc12	-	inhibition	-	12.5 µg/mL	-	H37Rv	83%
O=c1nc(SCc2ccccc2[N+](=O)[O-])c2[nH]cnc2[nH]1	-	MIC	-	-	-	H37Ra	16 µg/mL
O=c1cc(C(F)(F)F)c2cc3c4c(c2o1)CCCN4CCC3	BACTEC	inhibition	-	12.5 µg/mL	-	H37Rv	72%
O=C(/N=C/c1cccc(Br)c1)NCCCN1c2ccccc2Sc2ccccc21	agar	inhibition	-	25 µg/mL	-	H37Rv	27%
CN(C)CCNc1cc(C(F)(F)F)nc2c(C(F)(F)F)cccc12	-	MIC	-	-	-	-	94 µM
O=C(NCCCN1c2ccccc2Sc2ccccc21)N1C(=O)/C(=C\c2cccc(Br)c2)SC1c1cccc(Br)c1	agar	inhibition	-	50 µg/mL	-	H37Rv	79%
Oc1ccccc1CNCCCCCNCc1ccccc1O	-	MIC	-	-	-	H37Ra	>25 µg/mL
CCC(C)C(=O)c1cn(-c2ccccc2)nn1	-	inhibition	-	12.5 µg/mL	-	H37Rv	78%
COc1cc2c(c3c1c(=O)c1ccccc1n3C)C=C([N+](=O)[O-])C(C)(C)O2	BACTEC	MIC	-	-	-	H37Rv	≥12.5 µg/mL
O=C(Nc1ccccc1)c1ccccc1OP(=O)(Oc1ccccc1)Oc1ccccc1	-	MIC	-	-	14 d	My 331/88	250 µM
CC(=O)NNc1nc(C)c(C(=O)NNC(=O)C(=O)Nc2ccc(Cl)cc2Cl)s1	BACTEC	inhibition	-	12.5 µg/mL	-	H37Rv	-11%
O=C1c2cc(Cl)ccc2OP(=O)(c2ccccc2)N1c1ccc(C(F)(F)F)cc1	-	MIC	-	-	14 d	My 331/88	1 µM
COc1nc2ccc(Br)cc2cc1[C@@H](c1ccccc1)[C@@](O)(CCN(C)C)c1cccc2ccccc12	broth dilution	MIC80	-	-	-	ATCC 27294	0.2 µM
C/C(O)=C(/N=Nc1ccc(-c2nc3ccc(C)c(S(=O)(=O)O)c3s2)cc1)C(=O)Nc1ccccc1	resazurin	MIC bound	-	-	-	H37Rv	>6.25 µg/mL
COc1ccc(C2SCC(=O)N2C(=O)NCCCN2c3ccccc3Sc3ccccc32)cc1	agar	inhibition	-	25 µg/mL	-	H37Rv	30%
NC(=O)c1cnccn1	-	MIC	-	-	-	Isolate 97-1069	900 µg/mL
CO[C@H]1/C=C/O[C@@]2(C)Oc3c(C)c(O)c4c(O)c(c(/C=N/N5CCN(C)CC5)c(O)c4c3C2=O)NC(=O)/C(C)=C\C=C\[C@H](C)[C@H](O)[C@@H](C)[C@@H](O)[C@@H](C)[C@H](OC(C)=O)[C@@H]1C	-	MIC	-	-	-	Isolate 5	>32 µg/mL
O=C1c2cc(Br)ccc2OP(=O)(c2ccccc2)N1c1ccc(C(F)(F)F)cc1	-	MIC	-	-	21 d	Praha 4	1 µM
Cc1ccccc1-c1cs/c(=N/NC(=O)CSc2nnc(-c3ccccn3)s2)n1-c1ccccc1	-	MIC	-	-	-	Clinical isolate 331	80 µg/mL
O=[N+]([O-])c1cc(Cl)cc2c1NP(=O)(c1ccccc1)N2	resazurin	MIC bound	-	-	-	H37Rv	>6.25 µg/mL
O=C(/N=C/c1ccccc1[N+](=O)[O-])NCCCN1c2ccccc2Sc2ccccc21	agar	inhibition	-	50 µg/mL	-	H37Rv	66%
O=c1nc(SCc2ccc(F)cc2C(F)(F)F)c2[nH]cnc2[nH]1	-	MIC90	-	-	-	H37Rv	>6.25 µg/mL
O=C(N/N=C/c1cc(Cl)ccc1O)C(=O)N/N=C/c1cc(Cl)ccc1O	BACTEC	inhibition	-	12.5 µg/mL	-	H37Rv	24%
CC1COc2c(N3CCN(C)CC3)c(F)cc3c(=O)c(C(=O)O)cn1c23	-	MIC	-	-	-	900216	0.5 µg/mL
O=C(/N=C/c1ccccc1Cl)NCCCN1c2ccccc2Sc2ccccc21	agar	inhibition	-	25 µg/mL	-	H37Rv	30%
O=C(c1ccc(Cl)c(Cl)c1)c1cn(-c2ccccc2)nn1	-	MIC	-	-	-	H37Rv	>12.5 µg/mL
O=C(NCCCN1c2ccccc2Sc2ccccc21)N1C(=O)/C(=C\c2ccc([N+](=O)[O-])cc2)SC1c1ccc([N+](=O)[O-])cc1	agar	inhibition	-	25 µg/mL	-	H37Rv	32%
CN[C@@H]1[C@H](O[C@H]2[C@H](O[C@H]3[C@H](O)[C@@H](O)[C@H](N=C(N)N)[C@@H](O)[C@@H]3N=C(N)N)O[C@@H](C)[C@]2(O)C=O)O[C@@H](CO)[C@H](O)[C@H]1O	broth dilution	MIC80	-	-	-	ATCC 27294	0.3 µM
NC[C@H]1O[C@H](O[C@H]2[C@H](O)[C@@H](O[C@H]3O[C@H](CO)[C@@H](O)[C@H](N)[C@H]3O)[C@H](N)C[C@@H]2N)[C@H](O)[C@@H](O)[C@@H]1O	-	MIC	-	-	-	Isolate 12	2 µg/mL
CC(=O)NC[C@H]1CN(c2ccc(N3CCN(c4ccc([N+](=O)[O-])s4)CC3)c(F)c2)C(=O)O1	-	MIC	-	-	-	H37Rv	≤0.125 µg/mL
CCOC(=O)CC(NCc1ccccc1)c1cccc(Cl)c1	-	MIC	-	-	-	H37Ra	>25 µg/mL
COc1ccc(-c2cc(C(F)(F)F)nc3c(C(F)(F)F)cccc23)cc1	-	MIC	-	-	-	-	118 µM
O=C(c1ccc2ccccc2c1)c1cn(-c2ccc(Cl)cc2)nn1	-	MIC	-	-	-	H37Rv	>12.5 µg/mL
O=C(Nc1ccc(Cl)c(Cl)c1)c1cc(Cl)ccc1OP(=O)(OCc1ccccc1)OCc1ccccc1	-	MIC	-	-	7 d	My 331/88	32 µM
Cc1cccc(OC/C(N)=N\NC(=O)c2ccncc2)c1	-	MIC	-	-	-	ATCC 35838 (rifampin-resistant)	1.56 µg/mL
COc1cccc(Sc2nc(Cl)nc3nc[nH]c23)c1	-	MIC90	-	-	-	H37Rv	>6.25 µg/mL
C[C@@H]1O[C@@H]1P(=O)(O)O	BACTEC	inhibition	-	12.5 µg/mL	-	H37Rv	-5%
O=C(c1ccc2ccccc2c1)c1cn(-c2cccc3ccccc23)nn1	-	inhibition	-	12.5 µg/mL	-	H37Rv	0%
COc1cc(/C=C2/N=C(C)N(n3c(-c4ccccc4)nc4ccccc4c3=O)C2=O)cc(OC)c1OC	BACTEC	MIC bound	-	-	-	H37Rv	>12.5 µg/mL
COc1ccc(OC)c(Sc2ncnc3nc[nH]c23)c1	-	MIC	-	-	-	H37Ra	>12.8 µg/mL
CC(O)C1(O)C(O)CC(OC2c3cc4c(c(O)c3[C@@H]3C[C@@]2(C)OC32C=c3cc[nH]c3=N2)C(=O)c2cccc(O)c2C4=O)OC1C	-	MIC	-	-	-	EMB-R	0.8 µg/mL
CCCCNC(CC(=O)OCC)c1cccc(Cl)c1	-	MIC	-	-	-	Sensitive strains	25 µg/mL
OC[C@H]1NC[C@@H](O)[C@@H](O)[C@@H]1O	BACTEC	inhibition	-	12.5 µg/mL	-	H37Rv	6%
CCOC(=O)c1cn(-c2ccc(Cl)cc2)nn1	-	inhibition	-	12.5 µg/mL	-	H37Rv	0%
CC(NNC(=O)c1cc[n+]([B]C#N)cc1)c1cccc(C(F)(F)F)c1	BACTEC	inhibition	-	0.5 µM	-	-	0%
O=C(Nc1ccc(C(F)(F)F)cc1)c1cc(Cl)ccc1OP(=O)(c1ccccc1)c1ccccc1	-	MIC	-	-	14 d	Praha 4	1 µM

A second listing of 7 rows from above:

structure,method,read-out,mutations,dose,setting,strain or isolate,value
CCCCCCCCC=CCCCCCCCCNCc1ccc(Cl)cc1,-,MIC,-,-,-,Clinical isolates MDR,25 µg/mL
O=C(N/N=C/c1cc(Cl)ccc1O)C(=O)N/N=C/c1cc(Cl)ccc1O,BACTEC,inhibition,-,12.5 µg/mL,-,H37Rv,24%
O=C1c2cc(Cl)ccc2OP(=O)(c2ccccc2)N1c1ccc(C(F)(F)F)cc1,-,MIC,-,-,14 d,My 331/88,1 µM
C[C@@H]1O[C@@H]1P(=O)(O)O,BACTEC,inhibition,-,12.5 µg/mL,-,H37Rv,-5%
O=C(Nc1ccc(Cl)cc1)c1cc(Cl)ccc1OP(=O)(OCc1ccccc1)OCc1ccccc1,-,MIC,-,-,7 d,My 331/88,16 µM
O=C(c1ccc2ccccc2c1)c1cn(-c2ccc(Cl)cc2)nn1,-,MIC,-,-,-,H37Rv,>12.5 µg/mL
CC1COc2c(N3CCN(C)CC3)c(F)cc3c(=O)c(C(=O)O)cn1c23,broth dilution,MIC80,Streptomycin-resistant,-,-,35820,0.7 µM